Pooled drug test results. Numbers come from NIAID ChemDB, via PubChem.

Common to all: whole-cell or culture tests; agent: Candida albicans

A number after MIC or MFC names an inhibition level or a share of isolates. An empty or dashed field is not shown. Rows are shuffled and stem from different studies. Two numbers with a dash give a range or band. ECn is the concentration giving n% inhibition of infection, replication or growth.

SMILES | measure | method | strain or isolate | value
COc1ccccc1-c1n[nH]c2c1CCCC2 | MIC |  | 264/624 | 7.8 µg/mL
CCCCCCCCCCCC(=O)NC(CCCN)C(=O)NC(CCCN)C(=O)NC(CCCN)C(N)=O | MIC | broth dilution | ATCC 24433 | 12.5 µg/mL
Nc1ccc(O)c(NC(=O)c2ccc(Cl)cc2)c1 | MIC |  |  | 25 µg/mL
C[C@@H]1Oc2cc(Cl)ccc2/C(=N/OCc2ccc(Cl)cc2Cl)[C@H]1[n+]1cnc[nH]1 | MIC |  | ATCC 10231 | 16 µg/mL
CCCCCCCCCCCCCCCC(=O)NC(CCCN)C(=O)NC(CCCN)C(N)=O | MIC | broth dilution | ATCC 24433 | 6.25 µg/mL
C[C@@H]1Oc2ccccc2/C(=N/OCc2ccccc2)[C@H]1n1ccnc1 | MFC |  | ATCC 10231 | 64 µg/mL
O=C(Cc1ccc(Cl)cc1)Nc1ccccc1O | MIC |  |  | 25 µg/mL
C[C@H]1O[C@@H](OC[C@H]2CC[C@@](C)(C=O)[C@]2(C)C(=O)O)C[C@@H]2OC(C)(C)O[C@@H]21 | MIC |  | 2005E | 84 µM
C[C@@H]1Oc2cc(Cl)ccc2/C(=N/OCc2ccc(Cl)cc2)[C@H]1n1ccnc1 | MIC |  | ATCC 10231 | 0.5 µg/mL
Cn1nc2c(=O)[nH]nc(-c3ccccc3)c2c1-c1ccccc1 | MIC |  | ATCC 27541 | >0.62 µg/mL
CCCCCCCCOc1ccc(NC(=O)C(CCCNC(=O)OC(C)(C)C)NC(=O)[C@]2(O)C[C@@H](O)C(O)[C@H](OC(=O)/C=C/c3ccc(O)c(O)c3)C2)cc1 | MIC80 |  | ATCC 90028 | 4 µg/mL
Cn1cncc1C(=O)c1nccc2c1[nH]c1ccccc12 | MIC |  |  | >20 µg/mL
Cc1ccc2nc(CCCN3CCN(c4ccccc4Cl)CC3)[nH]c2c1 | MIC |  | ATCC 10231 | 78 µg/mL
COc1ccc([N+](=O)[O-])cc1CSc1ncccc1CN1CCN(C(=N)N)CC1 | MIC50 |  | SC5314 CAI | >100 µg/mL
O=C(NN1C(=O)/C(=C/c2cc3ccccc3nc2Cl)N=C1c1ccccc1)c1ccncc1 | MIC | broth dilution | MTCC 227 | 200 µg/mL
Clc1ccc(CO/N=C(/Cn2ccnc2)c2ccc(Cl)cc2Cl)c(Cl)c1 | MIC |  |  | 6.25 µg/mL
O=[N+]([O-])c1ccc(-c2n[nH]c3c2CCCC3)cc1 | MIC |  | 264/624 | 500 µg/mL
Nc1[nH]c(=O)ncc1F | MIC |  | ATCC64550 | 1 µg/mL
C[C@@H]1Oc2ccccc2/C(=N/OCc2c(Cl)cccc2Cl)[C@H]1n1ccnc1 | MIC |  | ATCC 10231 | 64 µg/mL
O=C(Cc1nc2ccccc2o1)C(F)(F)F | MIC |  |  | 12 µg/mL
C[C@@H]1Oc2ccccc2/C(=N/OCc2ccc(Cl)c(Cl)c2)[C@H]1n1ccnc1 | MFC |  | ATCC 10231 | 16 µg/mL
Cc1ccc(/C=N/NC(=O)c2nnn(-c3ccnc4c(C(F)(F)F)cccc34)c2C)cc1 | MIC |  |  | 25 µg/mL
N=C(N)c1ccc2nc(-c3ccc(-c4nc5ccc(C(=N)N)cc5[nH]4)[nH]3)[nH]c2c1 | MIC |  | Isolate CA783 | 0.78 µg/mL
CC(=O)Nc1ccc(C(=O)N/N=C/c2ccc(O)cc2)cc1 | EC50 | broth dilution | ATCC 10231 | 1680 µM
COCC(=O)OC[C@H]1CC[C@@](C)(C=O)[C@]1(C)C(=O)O | EC50 |  | 2005E | 81 µM
Cn1nc2c(N)nnc(-c3ccccc3)c2c1-c1ccccc1 | MIC |  | ATCC 27541 | >0.62 µg/mL
O=C(NN1C(=O)/C(=C/c2cc3ccccc3nc2Cl)N=C1c1ccccc1)c1cccc(Cl)c1 | MIC | broth dilution | MTCC 227 | 100 µg/mL
CC1(c2ccccc2)CC(/C(=N/OCC(O)CN2CCOCC2)c2cc3ccccc3o2)C1 | MIC |  | ATCC 10231 | 0.625 µg/mL
Cn1nc2ccc(NC(=O)c3ccc([N+](=O)[O-])cc3)cc2n1 | MIC |  | ATCC 10231 | 100 µg/mL
Nc1[nH]c(=O)ncc1F | MIC |  | B311 | 0.004 µg/mL
CC(C)(CS(=O)(=O)[O-])N(Cl)Cl | MIC |  | 10231 | 32 µg/mL
N=C(N)N1CCN(Cc2cccnc2SCc2ccc(F)cc2F)CC1 | MIC50 |  | SC5314 CAI | >100 µg/mL
Cc1ccc(/C=C/C(=O)c2nnn(-c3ccnc4c(C(F)(F)F)cccc34)c2C)cc1 | MIC |  |  | 25 µg/mL
Cc1ccc2oc(-c3ccc(Cl)cc3Cl)nc2c1 | MIC |  |  | 25 µg/mL
CCCCCCCCCCCCCCCC(=O)NC(CCCN)C(=O)NC(CCCN)C(=O)NC(CCCN)C(N)=O | MIC | broth dilution | ATCC 24433 | 3.1 µg/mL
Clc1ccccc1N1CCN(CCCc2nc3ccc(I)cc3[nH]2)CC1 | MIC |  | ATCC 10231 | 625 µg/mL
Clc1cc(Cl)c(OCC#CI)cc1Cl | MIC |  |  | 6.25 µg/mL
CC1(c2ccccc2)CC(/C(=N/OCC(O)CN=[N+]=[N-])c2cc3ccccc3o2)C1 | MIC |  | ATCC 10231 | 0.625 µg/mL
C\C1=C/C=C/C=C/C=C/C=C/CC2CC(O)CC(O)(CC(O)CC(O)CC(O)CC(O)CC(O)CC(O)CC(O)/C=C/C(C)C(C(C)C)OC1=O)O2 | MIC | broth dilution |  | 70 µg/mL
Cn1nc(C(=O)O)c(/C(=N/Nc2ccccn2)c2ccccc2)c1-c1ccccc1 | MIC |  | ATCC 27541 | 0.62 µg/mL
Clc1ccc(COC(Cn2ccnc2)c2ccc(Cl)cc2Cl)c(Cl)c1 | MIC | agar diffusion / agar |  | 110.8 µg/mL
C[C@@H](CC1COC(/C=C/C=C/c2ccc(C#N)cc2F)OC1)[C@](O)(Cn1cncn1)c1ccc(F)cc1F | MIC |  | TIMM3164 | 0.016 µg/mL
CCS(=O)(=O)C(F)(F)C(O)(Cn1cncn1)c1ccc(F)cc1F | MIC |  | IFM 47601 fluconazole-resistant | >16 µg/mL
C[C@H](CCC(=N)N)C1CC[C@@]2(C)C3=C(CCC12C)C1(C)CCC(O)C(C)(C)C1CC3.O=S(=O)(O)C(F)(F)F | MLC |  |  | 12.5 µg/mL
O=C(Cc1ccccc1)NN1C(=O)/C(=C/c2cc3ccccc3nc2Cl)N=C1c1ccccc1 | MIC | broth dilution | MTCC 227 | 1000 µg/mL
CCOC(=O)c1cc(-c2ccc([N+](=O)[O-])cc2)n(CCn2c([N+](=O)[O-])cnc2C)c1C | MIC |  |  | >1024 µg/mL
CCCCCCCC(=O)NC(CCCN)C(=O)NC(CCCN)C(N)=O | MIC | broth dilution | ATCC 24433 | >100 µg/mL
C[C@@H](SC1COC(/C=C/C=C/c2ccc(C#N)cc2)OC1)[C@](O)(Cn1cncn1)c1ccc(F)cc1F | MIC |  | TIMM3164 | 0.031–0.063 µg/mL
CC(N1CCN(c2ccc(-n3cnnn3)cc2)C1=O)[C@](O)(Cn1cncn1)c1ccc(F)cc1F | MIC |  | Azole-resistant | 2 µg/mL
Cc1c(C(=O)N/N=C/c2ccc([N+](=O)[O-])cc2)nnn1-c1ccnc2c(C(F)(F)F)cccc12 | MIC |  |  | 25 µg/mL
C[C@@]1(C=O)CC[C@H](COC2CCCCO2)[C@@]1(C)C(=O)O | EC50 |  | 2005E | 14 µM
CCn1cc(C(=O)O)c(=O)c2cc(F)c(N3C(=O)C(C)NC(=O)C3C)cc21 | MIC |  | ATCC 2091 | 30.4 µg/mL
C[C@@H]1Oc2ccccc2/C(=N/OCc2ccc(Cl)cc2Cl)[C@H]1[n+]1cnc[nH]1 | MIC |  | ATCC 10231 | >64 µg/mL
COc1cc(OC)cc(C(=O)Nc2cc(Cl)ccc2O)c1 | MIC |  |  | 25 µg/mL
CCOC(=O)c1cc(-c2ccccc2)n(CCn2c([N+](=O)[O-])cnc2C)c1C | MIC |  |  | >1024 µg/mL
CCO[C@@H]1[C@@H](OCC)[C@H](Cc2ccccc2)O[C@@H]2CO[C@@H](c3ccc(Cl)cc3)O[C@@H]12 | MIC |  | ATCC 24433 | >25 µg/mL
CC(N1CCN(c2ccc(-n3cnnn3)cc2)C1=O)[C@](O)(Cn1cncn1)c1ccc(F)cc1F | MIC90 |  | 105 strains | 0.25 µg/mL
CC(=O)Nc1ccc(C(=O)N/N=C/c2ccc(N(C)C)cc2)cc1 | EC50 | broth dilution | ATCC 10231 | 770 µM
CCCCCCCCCCCCCC(=O)NC(CCCN)C(=O)NC(CCCN)C(=O)NC(CCCN)C(=O)NC(CCCN)C(N)=O | MIC | broth dilution | ATCC 24433 | 6.25 µg/mL
N#Cc1ccccc1CSc1ncccc1CN1CCN(C(=N)N)CC1 | MIC50 |  | SC5314 CAI | >100 µg/mL
O=C(Nc1ccc2nn(C3CCCCC3)nc2c1)c1ccc(Cl)c(Cl)c1 | MIC |  | ATCC 10231 | >200 µg/mL
N#Cc1ccc(CSc2ncccc2CN2CCN(C(=N)N)CC2)cc1 | MIC50 |  | SC5314 CAI | >100 µg/mL
Cc1ccc2nc(-c3ccc(Cl)cc3Cl)oc2c1 | MIC |  |  | 25 µg/mL
Cc1c(C(=O)/C=C/c2ccco2)nnn1-c1ccnc2c(C(F)(F)F)cccc12 | MIC |  |  | 12.5 µg/mL
Cc1ccc2oc(-c3ccccc3F)nc2c1 | MIC |  |  | 12.5 µg/mL
O=C(NN1C(=O)/C(=C/c2cc3ccccc3nc2Cl)N=C1c1ccccc1)c1cccc(O)c1 | MIC | broth dilution | MTCC 227 | 1000 µg/mL
N#Cc1cccc(CSc2ncccc2CN2CCN(C(=N)N)CC2)c1 | MIC50 |  | SC5314 CAI | >100 µg/mL
CCCCCCCCCCCCCCCCCC(=O)NC(CCCN)C(N)=O | MIC | broth dilution | ATCC 24433 | >100 µg/mL
Cn1nc2c(=O)n(-c3ccccc3)nc(-c3ccccc3)c2c1-c1ccccc1 | MIC |  | ATCC 27541 | 0.62 µg/mL
CCOC(=O)Nc1ccc2nn(C)nc2c1 | MIC |  | ATCC 10231 | 100 µg/mL
N=C(N)N1CCN(Cc2cccnc2SCc2cccc([N+](=O)[O-])c2)CC1 | MIC50 |  | SC5314 CAI | >100 µg/mL
Cc1ccsc1/C=C/C(=O)c1nnn(-c2ccnc3c(C(F)(F)F)cccc23)c1C | MIC |  |  | 6 µg/mL
CCn1cc(C(=O)O)c(=O)c2cc(F)c(N3CC(=O)NCC3=O)cc21 | MIC |  | ATCC 2091 | 25 µg/mL
Cc1ccc(-c2nc3ccc(C)cc3o2)c(C)c1 | MIC |  |  | 25 µg/mL

4 of the rows above, restated:

SMILES | measure | method | strain or isolate | value
C[C@@H](SC1COC(/C=C/C=C/c2ccc(C#N)cc2)OC1)[C@](O)(Cn1cncn1)c1ccc(F)cc1F | MIC |  | TIMM3164 | 0.031–0.063 µg/mL
C[C@@]1(C=O)CC[C@H](COC2CCCCO2)[C@@]1(C)C(=O)O | EC50 |  | 2005E | 14 µM
Cc1ccc(-c2nc3ccc(C)cc3o2)c(C)c1 | MIC |  |  | 25 µg/mL
Clc1cc(Cl)c(OCC#CI)cc1Cl | MIC |  |  | 6.25 µg/mL